Assay results taken from patent US8674085B2, “2′-branched nucleosides and Flaviviridae mutation” (priority 2002, dated 2014).

Tested on: BVDV I-N-dIns β-D-2′-CH3-riboC-R (β-D-2′-CH3-riboC-resistant BVDV)
Assay: BVDV virus yield reduction assay in de novo-infected MDBK cells
Type: cell-based, bovine viral diarrhea virus
Method: To conduct the virus focus assay, MDBK cells were seeded onto 6-well plates containing 2×10^5 cells per well and grown at 37° C./5% CO2 for at least 5 hours before use. The test samples (culture supernatants combined with cell monolayers) were frozen/thawed twice, serially diluted by 10-fold in medium, and used to inoculate test cells in 6-well plates at 0.2 mL per well. The inoculum was removed after 1 hour of adsorption, and the cells were overlaid with 3 mL of 0.5% agarose in complete growth medium (1× DMEM (Cellgro), supplemented with 8% horse serum, penicillin, streptomycin, L-glutamine, sodium pyruvate, and 25 mM HEPES). After 3 days of incubation at 37° C./5% CO2, the plates were fixed for 1 hour with 3 mL of 7.4% formaldehyde in PBS, and washed with PBS. […] Virus titers were calculated in FFU/mL, using the following equation: TFFU/mL=N×5×D; where T is a virus titer in FFU/mL; N is a number of foci per well; and D is a dilution factor for the corresponding virus sample. […]
To conduct the virus yield reduction assay, MDBK cells were seeded onto 24-well plates (1×10^5 cells per well) and grown at 37° C./5% CO2 overnight. […] The virus titer in the cell culture was quantified by focus assay as described above. […]

Interferon alpha-2b: Intron-A (interferon alpha-2b) by Schering [reference compound]
maximum reduction in the viral yield (I-N-dIns β-D-2′-CH3-riboC-R variant virus): ~4 log
times more sensitive than the wild type BVDV (based on comparison of the EC90 values): approximately 40 times
